According to paper PMC7354218 (ACS infectious diseases, 2020):

Tested on: reduced nicotinamide adenine dinucleotide phosphate
Assay: purified protein, by the assay type
Conditions: pH 8.0; varied: cofactor

## NpsB (Klebsiella oxytoca)
  Km: (5.7 ± 1.7) × 10^1 uM
  kcat: 0.058 s⁻¹
  kcat/Km: 1000 M⁻¹ s⁻¹
